Compound potency records, mixed from different reports. Data source: NIAID ChemDB in PubChem.

Shared fields: enzyme or target tests

Inhibition is in % at the dose shown (toxicity tests: loss of growth or viability). Rows are shuffled and stem from different studies. Two numbers with a dash give a range or band. An empty or dashed field is not shown. ICn is the concentration giving n% inhibition.

structure,read-out,target,species,dose,result
Cc1ccc(S(=O)(=O)Nc2cc(-c3ccccc3)sc2C(=O)Nc2nccs2)cc1,IC50,NS3 ATPase,Hepatitis C virus,,5–20 µM
COc1nc(Nc2ccc3[nH]ncc3c2)nc(NN2CCN(C)CC2)n1,inhibition,Nonstructural protein 5B,Hepatitis C virus,0.1 µg/mL,0%
CN(c1cc(-c2ccccc2)sc1C(=O)O)S(=O)(=O)c1ccc(Cl)cc1Cl,IC50,NS3 ATPase,Hepatitis C virus,,<5 µM
C[C@@H](NC(=O)c1ccc2c(c1)nc(-c1ccccc1)n2C1CCCCC1)C(=O)Nc1ccc(/C=C/C(=O)O)cc1,IC50,NS5B polymerase,Hepatitis C virus,,0.5–5 µM
CNC(=O)C1CCN(c2nc(Nc3ccc4[nH]ncc4c3)nc(OC)n2)CC1,inhibition,DNA polymerase,Hepatitis B virus,0.1 µg/mL,18%
CCC(C=O)NC(=O)C1[C@@H]2CC2CN1C(=O)[C@@H](NC(=O)[C@@H](NC(=O)[C@H](CC(=O)O)NC(=O)[C@H](CCC(=O)O)NC(C)=O)C(C)C)C(C)C,Ki,NS3 protease,Hepatitis C virus,,<1 µM
O=C(Nc1ccsc1-c1nc(C(=O)O)c(O)c(=O)[nH]1)OCCc1ccccc1,IC50,HCV polymerase,Hepatitis C virus,,<25 µM
COc1ccc(-c2ccc(C(N)=O)cc2)c(-c2ccc3cc(-c4nc5cc(C(=O)O)ccc5n4C4CCCCC4)ccc3n2)c1,inhibition,NS5B polymerase,Hepatitis C virus,100 µM,101%
O=C(O)c1cnn2c(-c3cccc(Oc4ccccc4)c3)c(-c3ccccc3)cnc12,IC50,RNA-dependent RNA polymerase,Hepatitis C virus,,>10 µM
O=C(O)c1ccc2c(c1)nc(-c1ccc3nc(-c4cccc(OCCCN5CCCC5)c4)ccc3c1)n2C1CCCCC1,inhibition,NS5B polymerase,Hepatitis C virus,100 µM,96.83%
CC(C)Cc1c(-c2ccc(OCc3ccccc3)cc2)cnc2c(C(=O)O)cnn12,IC50,RNA-dependent RNA polymerase,Hepatitis C virus,,>10 µM
O=C(O)c1sc(-c2ccccc2)cc1N(C(=O)c1ccc(Cl)cc1Cl)C1CCCC1,IC50,NS3 ATPase,Hepatitis C virus,,<5 µM
CNC(=O)c1c(-c2ccc(F)cc2)oc2cc(N(C)S(C)(=O)=O)c(OCc3nsc(N(C)C4CC4)n3)cc12,IC50,Nonstructural protein 5B,Hepatitis C virus,,≤0.5 µM
O=C(O)c1cc2nc(-c3ccc(Oc4ccccc4)cc3)cc(-c3ccc(-c4ccccc4)cc3)n2n1,IC50,RNA-dependent RNA polymerase,Hepatitis C virus,,1–10 µM
O=C(O)/C=C/c1ccc(NC(=O)C2(NC(=O)c3ccc4c(c3)nc(-c3ccoc3)n4C3CCCCC3)CCNCC2)cc1,IC50,NS5B polymerase,Hepatitis C virus,,<0.5 µM
COc1ccc(-c2ccc(C)cc2)c(-c2ccc3cc(-c4nc5cc(C(=O)O)ccc5n4C4CCCCC4)ccc3n2)c1,inhibition,NS5B polymerase,Hepatitis C virus,100 µM,99.6%
COc1ccc(SCc2cccc(-c3nc(C(=O)O)c(O)c(=O)[nH]3)c2)cc1,IC50,HCV polymerase,Hepatitis C virus,,<100 µM
CC/C(=C\c1cccc(NC(=O)C(C)NC(=O)c2ccc3c(c2)nc(-c2ccoc2)n3C2CCCCC2)c1)C(=O)O,IC50,NS5B polymerase,Hepatitis C virus,,0.5–5 µM
CC(C)NC1=NC(NC(C)C)N(CN)C(Nc2ccc3cn[nH]c3c2)=N1,inhibition,Nonstructural protein 5B,Hepatitis C virus,0.1 µg/mL,38%
CC(C)(C)C(=O)OCOC(=O)c1nc(-c2sccc2NC(=O)c2ccccc2)[nH]c(=O)c1O,IC50,HCV polymerase,Hepatitis C virus,,<50 µM
CNC(=O)c1c(-c2ccc(F)cc2)oc2cc(N3CCOCC3)c(OCc3cccc4c3C(=O)OC(C)(C)O4)cc12,IC50,Nonstructural protein 5B,Hepatitis C virus,,≤0.5 µM
C[C@@H]1CCCC[C@H]1n1c(-c2ccoc2)nc2cc(C(=O)NC3(C(=O)Nc4ccc(/C=C/C(=O)O)cc4)CCCC3)ccc21,IC50,NS5B polymerase,Hepatitis C virus,,0.5–5 µM
O=C(O)C1Cc2ccccc2CN1C(=O)c1ccc2c(c1)nc(-c1ccc3nc(-c4ccccc4)cnc3c1)n2C1CCCCC1,inhibition,NS5B polymerase,Hepatitis C virus,100 µM,98.89%
COc1nc(Nc2ccc3cn[nH]c3c2)nc(-n2ccnc2)n1,inhibition,Nonstructural protein 5B,Hepatitis C virus,0.1 µg/mL,0%
CC(C)=CC1C(C(=O)Nc2ccsc2-c2nc(C(=O)O)c(O)c(=O)[nH]2)C1(C)C,IC50,HCV polymerase,Hepatitis C virus,,<25 µM
O=C(O)c1cc2nc(-c3ccc(Cl)cc3)cc(-c3ccccc3OCc3ccccc3)n2n1,IC50,RNA-dependent RNA polymerase,Hepatitis C virus,,1–10 µM
CNC(=O)c1c(-c2ccc(F)cc2)oc2cc(C3CCCN3C(=O)C3CC3)c(OC(C)C)cc12,IC50,Nonstructural protein 5B,Hepatitis C virus,,≤0.5 µM
O=C(O)c1cc2nc(-c3ccc(Oc4ccccc4)cc3)c(C3CCCCC3)c(=O)n2[nH]1,IC50,RNA-dependent RNA polymerase,Hepatitis C virus,,1–10 µM
O=C(O)c1sc(-c2ccccc2)cc1NS(=O)(=O)c1ccccc1Cl,IC50,NS3 ATPase,Hepatitis C virus,,5–20 µM
O=C(O)c1ccc2cc(NC(=O)c3ccc4c(c3)nc(-c3ccc5nc(-c6ccccc6)cnc5c3)n4C3CCCCC3)ccc2c1,inhibition,NS5B polymerase,Hepatitis C virus,33 µM,96.84%
CC[C@@H](C=O)NC(=O)[C@@H]1C[C@@H](OC(=O)Nc2ccc(C(C)=O)cc2)CN1C(=O)[C@@H](NC(=O)[C@@H](NC(=O)c1cnccn1)C(C)C)C(C)C,Ki,NS3 protease,Hepatitis C virus,,1–100 µM
O=C(N[C@H](Cc1ccccc1)C(=O)O)c1cnn2c(C3CCCCC3)c(-c3ccc(OCc4ccccc4)cc3)cnc12,IC50,RNA-dependent RNA polymerase,Hepatitis C virus,,1–10 µM
CC[C@@H](C=O)NC(=O)[C@@H]1C[C@@H](OCc2ccccc2)CN1C(=O)[C@@H](NC(=O)Cc1ccc(NC(=O)Cc2ccccc2)cc1)C(C)C,Ki,NS3 protease,Hepatitis C virus,,1–100 µM
O=C(O)COc1ccc(-c2ccc(Cl)cc2)c(-c2ccc3cc(-c4nc5cc(C(=O)O)ccc5n4C4CCCCC4)ccc3n2)c1,inhibition,NS5B polymerase,Hepatitis C virus,33 µM,97.56%
Cc1ccccc1C(=O)Nc1cc(-c2ccc(NS(C)(=O)=O)cc2)sc1C(=O)O,IC50,NS3 ATPase,Hepatitis C virus,,5–20 µM
COc1ccc(C2CCCCC2)c(-c2ccc3cc(-c4nc5cc(C(=O)O)ccc5n4C4CCCCC4)ccc3n2)c1,inhibition,NS5B polymerase,Hepatitis C virus,33 µM,99.18%
COC(=O)[C@@H]1CCCN1c1nc(Nc2ccc3cn[nH]c3c2)nc(OC)n1,inhibition,DNA polymerase,Hepatitis B virus,0.1 µg/mL,20%
O=C(O)/C=C/c1ccc(NC(=O)C2(NC(=O)c3ccc4c(c3)nc(-c3cccc5c3OCO5)n4C3C[C@H]4CC[C@@H]3C4)CCCC2)cc1,IC50,NS5B polymerase,Hepatitis C virus,,0.5–5 µM
COc1nc(Nc2ccc3[nH]ncc3c2)nc(N2CCC(O)CC2)n1,IC50,DNA polymerase,Hepatitis B virus,,>1 µg/mL
O=C(O)c1ccc2c(c1)nc(-c1ccc3nc(-c4ccc5c(c4)CCO5)ccc3c1)n2C1CCCCC1,inhibition,NS5B polymerase,Hepatitis C virus,100 µM,97.15%
CC(NC(=O)c1ccc2c(c1)nc(-c1ccoc1)n2C1CCCCC1)C(=O)Nc1cccc(-c2ccc(C(=O)O)o2)c1,IC50,NS5B polymerase,Hepatitis C virus,,<0.5 µM
CNC(=O)c1c(-c2ccc(F)cc2)oc2cc(-c3cn[nH]c3C)c(OC(C)C)cc12,IC50,Nonstructural protein 5B,Hepatitis C virus,,≤0.5 µM
COc1cc(Cl)cc(S(=O)(=O)NC(=O)Nc2cscc2-c2nc(C(=O)O)c(O)c(=O)[nH]2)c1,IC50,HCV polymerase,Hepatitis C virus,,<25 µM
CC[C@H](NC(=O)[C@H](CC(C)C)NC(=O)[C@@H](NC(=O)[C@@H](NC(=O)[C@H](CC(=O)O)CC(=O)[C@H](CCC(=O)O)NC(C)=O)C(C)C)C(C)C)C(=O)C(=O)NCC1CCCO1,Ki,NS3 protease,Hepatitis C virus,,<1 µM
O=C(NCc1ccc(Cl)cc1Cl)Nc1cscc1-c1nc(C(=O)O)c(O)c(=O)[nH]1,IC50,HCV polymerase,Hepatitis C virus,,<25 µM
COc1nc(NCCc2ccccn2)nc(Nc2ccc3cn[nH]c3c2)n1,inhibition,Nonstructural protein 5B,Hepatitis C virus,1 µg/mL,13%
O=C(Cc1ccccc1Br)Nc1ccsc1-c1nc(C(=O)O)c(O)c(=O)[nH]1,IC50,HCV polymerase,Hepatitis C virus,,<25 µM
O=C(O)c1cc2nc(-c3ccoc3)c(C3CCCCC3)c(=O)n2[nH]1,IC50,RNA-dependent RNA polymerase,Hepatitis C virus,,<1 µM